Measurements taken from patent publication US20250152599A1 (priority 2020, published 2025).
Several values for one entry are separate records, joined by “and”; a condition that tells them apart may be missing. Equal entries are not always repeated. Where two headings read alike, the source gives them in different places.

Columns and labels:
[1] = system: novel coronavirus (SARS-CoV-2); conditions: second round, 48 hours, replicate wells, listed as Phenylarsine oxide
[2] = system: MRC5 cells; experiment: Cytotoxicity on MRC5 cells, CellTiter Glo, no virus infection; conditions: the first test (first round), 3 days

Compound: O=[As]c1ccccc1 (stereo not drawn)
- FAM Ct value ([1]; 12.5 nM): 15.36 and 15.38
- FAM Ct value ([1]; 50 nM): 17.41
- CC50 [2]: 257 nM
